Anti-infective test results gathered from many reports (values: NIAID ChemDB through PubChem).

Shared fields: target-level tests; organism: Pneumocystis carinii

Blank or dashed fields: not listed here. Conditions beyond the fields shown may differ between rows. a–b is a range or a potency band. Inhibition is in % at the dose shown (toxicity tests: loss of growth or viability). ICn is the concentration giving n% inhibition.

| smiles | target | method | read-out | dose | result |
|---|---|---|---|---|---|
| CC(=O)NS(=O)(=O)c1ccc(N=Nc2c(O)n(-c3ccccc3)n(-c3ccccc3)c2=O)cc1 | DHPS |  | IC50 |  | >10 µM |
| Nc1ccc(S(=O)(=O)Nc2cnc3ccccc3n2)cc1 | Oxidosqualene cyclase | HPLC | IC50 |  | 425 µM |
| CC1(C)N=C(N)N=C(N)N1c1cccc(CCc2ccccc2)c1 | DHFR |  | IC50 |  | 0.43 µM |
| CCOC(=O)c1c(OCC)cc(Cc2cnc(N)nc2N)cc1OCC | DHFR |  | IC50 |  | 8.3 µM |
| CC(CCCN)Nc1cc(O)c(O)c2cccnc12 | Dihydroorotate dehydrogenase |  | inhibition | 100 µM | 0% |
| CC(=O)NS(=O)(=O)c1ccc(N=NC2C(=O)N(C(=O)c3ccncc3)N=C2C)cc1 | DHPS |  | IC50 |  | >10 µM |
| CC1(C)N=C(N)N=C(N)N1c1ccc(C(=O)O)cc1 | DHFR |  | IC50 |  | >52 µM |
| COc1cc(Cc2cnc(N)nc2N)cc(OCc2ccccc2)c1OCc1ccccc1 | DHFR |  | IC50 |  | 8.3 µM |
| C=C1NC(OC)=C/C(=N/S(=O)(=O)c2ccc(N)cc2)N1 | DHPS |  | IC50 |  | 0.094 µM |
| Cc1c(CNc2ccc(C(=O)NC(CC(=O)O)CC(=O)O)cc2)ccc2nc(N)nc(N)c12 | DHFR |  | IC50 |  | 0.00022 µM |
| Cc1cc(NS(=O)(=O)c2ccc(N)cc2)no1 | DHPS |  | IC50 |  | 0.023 µM |
| COc1cc(Cc2cnc(N)nc2N)cc(OCCC(=O)NCC(=O)O)c1Br | DHFR |  | IC50 |  | 10 µM |
| CC(C)N=C(N)c1ccc2nc(/C=C\c3nc4ccc(C(N)=NC(C)C)cc4[nH]3)[nH]c2c1 | Topoisomerase I |  | IC50 |  | 6.25 µM |
| CCOCc1nc(N)nc(N)c1-c1ccc(Cl)c(Cl)c1 | DHFR |  | IC50 |  | 12.7 µM |
| Nc1ccc(S(=O)(=O)Nc2ncccn2)cc1 | Oxidosqualene cyclase | HPLC | inhibition | 500 µM | 10% |
| CC1(C)N=C(N)N=C(N)N1c1ccc(CCC(=O)Nc2ccc(S(=O)(=O)F)cc2)cc1 | DHFR |  | IC50 |  | 0.59 µM |
| COc1cc(Cc2cnc(N)nc2N)cc(OC)c1OC(C)(C)O | DHFR |  | IC50 |  | 24.8 µM |
| N=C(N)c1ccc(-c2cc3ccc(C(=N)N)cc3[nH]2)cc1 | Topoisomerase II |  | IC50 |  | 1–3 µM |
| CC(=O)Nc1ccc(S(=O)(=O)Nc2ccc3oc(=O)[nH]c3c2)cc1 | DHPS |  | IC50 |  | >10 µM |
| c1cc2nc(CCCCc3nc4ccc(C5=NCCN5)cc4[nH]3)[nH]c2cc1C1=NCCN1 | Topoisomerase II |  | IC50 |  | 1.25 µM |
| CC1(C)N=C(N)N=C(N)N1c1cccc(OCCCOc2ccc(N)cc2)c1 | DHFR |  | IC50 |  | 0.17 µM |

The last 2 rows once more:

smiles,target,method,read-out,dose,result
c1cc2nc(CCCCc3nc4ccc(C5=NCCN5)cc4[nH]3)[nH]c2cc1C1=NCCN1,Topoisomerase II,,IC50,,1.25 µM
CC1(C)N=C(N)N=C(N)N1c1cccc(OCCCOc2ccc(N)cc2)c1,DHFR,,IC50,,0.17 µM